Results published in PubChem BioAssay AID651640 (Broad Institute, 2012).
The list shows a part of the results, in another mix than the full data. Inconclusive results are not listed. Active and inactive are the calls of the source. Cut-off read from the data, not from the text of the source: active = CPE inhibition above about 20% (passing the limit was not always enough); inconclusive = no clear call, values can overlap the other calls; tested in BHK-21 cells.

Experiment: inhibitors of DENV2 cytopathic effect, primary screen, cell-based, plate reader, single concentration (AID 651640);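 note: 0% = median of neutral control wells and 100% = median of positive control wells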
Conditions: DENV2-infected cells, cytopathic effect rescue, at 9.99 µM, hits give high values

Compound | CPE inhibition
N#Cc1ccc(C(=O)NCC2(N3CCCCC3)CCCCC2)cc1 | inactive: 8.21%
CCCCn1nnnc1C(c1cccc(OC)c1OC)N1CCC(n2c(=O)[nH]c3ccccc32)CC1 (configuration not stated) | inactive: -2.38%
O=c1[nH]c2ccccc2n1C1CCN(C(c2cccs2)c2nnnn2C2CCCC2)CC1 (configuration not stated) | inactive: -15.7%
COc1cccc(C(c2nnnn2C(C)(C)C)N2CCC(n3c(=O)[nH]c4ccccc43)CC2)c1OC (configuration not stated) | inactive: -4.22%
CCOC(=O)N1CCC(Nc2ccc(C)cc2)CC1 | inactive: 2.44%
COc1ccc(C(=O)NCC2(N3CCOCC3)CCCCC2)cc1OC | inactive: -0.756%
O=c1[nH]c2ccccc2n1C1CCN(C(c2ccnc3ccccc23)c2nnnn2C2CCCC2)CC1 (configuration not stated) | inactive: -3.18%
O=c1[nH]c2ccccc2n1C1CCN(C(c2cccs2)c2nnnn2C2CCCCC2)CC1 (configuration not stated) | inactive: 7.33%
O=C(NCC1(N2CCOCC2)CCCCC1)c1cc(Br)ccc1Cl | inactive: 4.11%
CCCCn1nnnc1C(c1ccccc1)N1CCC(n2c(=O)[nH]c3ccccc32)CC1 (configuration not stated) | inactive: 16.7%
COc1cc(C(=O)NCC2(N3CCOCC3)CCCCC2)cc(OC)c1C | inactive: 0.517%
CN1CCC(Nc2ccc(Cl)cc2)CC1 | inactive: 1.89%
COc1cc(OC)cc(C(=O)NCC2(N3CCOCC3)CCCCC2)c1 | inactive: 9.09%
COc1cccc(C(c2nnnn2C2CCCC2)N2CCC(n3c(=O)[nH]c4ccccc43)CC2)c1OC (configuration not stated) | inactive: -3.52%
COc1cccc(C(=O)N(c2cc(C)cc(C)c2)C2CCN(C(=O)OC(C)(C)C)CC2)c1 | inactive: -1.81%
CCCOc1ccc(C(=O)NCC2(N(C)C)CCCCC2)cc1 | inactive: 3.16%

Compound | CPE inhibition
O=c1[nH]c2ccccc2n1C1CCN(C(c2cc3ccccc3o2)c2nnnn2C2CCCC2)CC1 (configuration not stated) | inactive: -2.35%
CC(C)(C)OC(=O)N1CCC(Nc2ccccc2)CC1 | inactive: -4.73%
O=C(O)C1(Nc2ccccc2)CCN(Cc2ccccc2)CC1 | inactive: -1.33%
NN(c1ccccc1)C1CCN(CCc2ccccc2)CC1 | inactive: -1.36%
CN1CCC(Nc2ccc(F)c(Cl)c2)CC1 | inactive: -2.8%
Cn1c(=O)[nH]cc(N(CCCl)CCCl)c1=O | inactive: -2.14%
Cc1ccccc1NC1(C#N)CCN(Cc2ccccc2)CC1 | inactive: -5.12%
CC(C)(C)n1nnnc1C(c1ccnc2ccccc12)N1CCC(n2c(=O)[nH]c3ccccc32)CC1 (configuration not stated) | inactive: 3.6%
COc1ccc(C(c2nnnn2C2CCCCC2)N2CCC(n3c(=O)[nH]c4ccccc43)CC2)cc1 (configuration not stated) | inactive: -2.55%
Cc1ccc(NC2(C#N)CCN(Cc3ccccc3)CC2)cc1 | inactive: 2.99%
Fc1ccccc1NC1CCN(Cc2ccccc2)CC1 | inactive: -1.39%
O=c1[nH]c2ccccc2n1C1CCN(C(c2ccnc3ccccc23)c2nnnn2C2CCCCC2)CC1 (configuration not stated) | inactive: 5.27%
COc1cc(OC)cc(C(=O)NCC2(N3CCCCC3)CCCCC2)c1 | inactive: 4.39%
CC(=O)N(c1ccccc1)C1CCNCC1 | inactive: 5.24%
COc1cccc(C(c2nnnn2C2CCCCC2)N2CCC(n3c(=O)[nH]c4ccccc43)CC2)c1OC (configuration not stated) | inactive: -11.3%
CCC(c1nnnn1C1CCCCC1)N1CCC(n2c(=O)[nH]c3ccccc32)CC1 (configuration not stated) | inactive: 0.938%
